# Share of PSTVd loop 6 variants by leaf site

Values reported by Wu et al. 2024 (doi:10.1371/journal.ppat.1012142).

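A pool of all variants was put on leaves of three Nicotiana benthamiana plants. Samples came from the inoculated region at 5 days, the leaf margin at 10 and upper systemic leaves at 12.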

The pool varies loop 6 of the PSTVd intermediate strain in the pattern UNNNCGNNNG; wild type is UGACCGCGAG (upper and lower strand joined, each 5' to 3', the first 5 letters being the upper strand, closing pairs included).

Values are reads per thousand in the sample; higher means more abundant, 0 means not found. Each site shows the three plants. "Pool" is the share in the plasmid pool used as inoculum, on the same scale. The inoculated region was read from the minus strand, the other sites from the plus strand. Wild type was 20.7 per thousand in the pool and the most common sequence in every sample (inoculated region 195, 198, 203; leaf margin 629, 591, 734; systemic leaves 942, 870, 868). Sequences that differ at fixed positions probably stem from PCR or sequencing errors, and defective variants can be carried along by functional ones. Samples held 36,220 to 57,551 reads, so the smallest values rest on one or two reads.

With UAAUCGAAAG (pool 0.183) the assay gave inoculated region 0.695 / 0.611 / 0.498; leaf margin 0.276 / 0 / 0.0464; systemic leaves 0 / 0 / 0. For UUGGCGAAAG (pool 0.327) the result was inoculated region 0.139 / 0.0719 / 0.0738; leaf margin 0 / 0 / 0; systemic leaves 0 / 0 / 0. UUGUCGAACG (pool 0.405) read inoculated region 0.0348 / 0.0539 / 0.0553; leaf margin 0 / 0 / 0; systemic leaves 0 / 0 / 0. With UAAUCGGCUG (pool 0.209) the assay gave inoculated region 0.695 / 0.826 / 0.443; leaf margin 0.110 / 0.0504 / 0.0464; systemic leaves 0 / 0 / 0. UCCACGAGGG (pool 0.170) gave inoculated region 0.0521 / 0.0719 / 0.111; leaf margin 0 / 0 / 0; systemic leaves 0 / 0 / 0. With UGUGCUGCAG (pool 0.0131) the assay gave inoculated region 0 / 0 / 0; leaf margin 0 / 0 / 0; systemic leaves 0 / 0 / 0. UUCGCGUCUG (pool 0.248) read inoculated region 0.104 / 0.108 / 0.0738; leaf margin 0 / 0 / 0.0232; systemic leaves 0 / 0 / 0.

UCUCCGGCAG (pool 0.183) read inoculated region 0.139 / 0.108 / 0.0553; leaf margin 0 / 0 / 0; systemic leaves 0 / 0 / 0. UCGUCGCCCG (pool 0.471) read inoculated region 0.104 / 0.126 / 0.0553; leaf margin 0 / 0 / 0.0232; systemic leaves 0 / 0 / 0. UUAGCGACGG (pool 0.222) gave inoculated region 0.0695 / 0.108 / 0.0553; leaf margin 0 / 0 / 0.0464; systemic leaves 0 / 0 / 0. For UUGUCGAUAG (pool 0.510) the result was inoculated region 0.226 / 0.0539 / 0.0369; leaf margin 0 / 0 / 0.232; systemic leaves 0 / 0 / 0. For UUCGCGUUAG (pool 0.353) the result was inoculated region 0.156 / 0.0539 / 0.129; leaf margin 0 / 0 / 0; systemic leaves 0 / 0 / 0. For UGACCGACCG (pool 0.275) the result was inoculated region 0.243 / 0.144 / 0.0738; leaf margin 0.276 / 0.227 / 0.0232; systemic leaves 0.0898 / 0.0808 / 0.0615. With UACACGCCGG (pool 0.131) the assay gave inoculated region 0.0869 / 0.0180 / 0.148; leaf margin 0 / 0 / 0.0232; systemic leaves 0 / 0 / 0.

UACGCGCCGG (pool 0.144) gave inoculated region 0.0695 / 0.0719 / 0.0553; leaf margin 0 / 0 / 0.0232; systemic leaves 0 / 0 / 0. UCCACGUUGG (pool 0.235) gave inoculated region 0.0869 / 0.0719 / 0.0369; leaf margin 0 / 0 / 0.0232; systemic leaves 0 / 0 / 0. UGACCGGCAG (pool 0.235) gave inoculated region 0.104 / 0.198 / 0.0922; leaf margin 0.387 / 0.252 / 0.0232; systemic leaves 0.0180 / 0.0808 / 0.185. For UGAGCGAGGG (pool 0.248) the result was inoculated region 0.104 / 0.0898 / 0.0553; leaf margin 0 / 0 / 0; systemic leaves 0 / 0 / 0. UAUACGUGAG (pool 0.327) read inoculated region 0.122 / 0.0539 / 0.0922; leaf margin 0.0276 / 0 / 0.0232; systemic leaves 0 / 0 / 0. UCGCCGGUUG (pool 0.144) read inoculated region 0.0348 / 0.108 / 0.0553; leaf margin 0 / 0 / 0; systemic leaves 0 / 0 / 0. UGGCCGUUCG (pool 0.222) read inoculated region 0.104 / 0.126 / 0.111; leaf margin 0.110 / 0 / 0.0232; systemic leaves 0 / 0 / 0.

For UGAUCGCUGG (pool 0.157) the result was inoculated region 0.104 / 0.0539 / 0.0553; leaf margin 0 / 0 / 0.0232; systemic leaves 0 / 0 / 0. UCGUCGGACC (pool 0.0131) gave inoculated region 0 / 0 / 0; leaf margin 0 / 0 / 0; systemic leaves 0 / 0 / 0.